# Measurements from article PMC11904993, “Humanized Candida and NanoBiT Assays Expedite Discovery of Bdf1 Bromodomain Inhibitors With Antifungal Potential” (Advanced Science, 2025).
# By UniProt entry, the sequences of proteins in these tests, tags left out. Residues count along the entry.
# UniProt Q6FWV7, 100-228 limits assumed: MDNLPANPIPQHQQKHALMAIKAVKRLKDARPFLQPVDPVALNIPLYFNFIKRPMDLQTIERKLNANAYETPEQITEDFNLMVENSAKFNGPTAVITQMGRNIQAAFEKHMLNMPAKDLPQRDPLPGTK
# UniProt Q6FWV7, 269-391 limits assumed: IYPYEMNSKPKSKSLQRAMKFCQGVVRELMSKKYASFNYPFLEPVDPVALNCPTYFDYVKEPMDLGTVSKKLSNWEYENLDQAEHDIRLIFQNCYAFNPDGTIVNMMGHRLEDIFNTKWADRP
# Biological target: CgBdf1 BD1 (Candida glabrata, UniProt Q6FWV7)
# Assay: HTRF assay, inhibition of H4ac4 peptide binding
# Design: species or system C. glabrata
# Conditions: read-out: IC50 CgBdf1 BD1; Table S3; estimate, preliminary single-replicate HTRF assay
row,SMILES,IC50
1,CCc1nn2c(CNC(=O)c3cccc(OC)c3)c(-c3ccccc3)nc2s1,> 20 µM
2,CCC(=O)Nc1ccc(CCc2nc3ccc(C(=O)NCc4ccc(C)o4)cc3[nH]2)cc1,19 µM
3,CC(=O)Nc1ccc(CCc2nc3ccc(C(=O)NCc4ccc(C)o4)cc3[nH]2)cc1,5.9 µM
4,CC(=O)c1cccc(NC(=O)Cn2cccc2-c2nc(-c3ccc4c(c3)OCO4)no2)c1,> 20 µM
5,COc1ccc(-c2nc3cnccn3c2Nc2ccc(Br)cc2)cc1OC,12 µM
6,CC(=O)Nc1ccc(CCc2nc3ccc(C(=O)NCc4ccc5c(c4)OCO5)cc3[nH]2)cc1,21 µM

# Biological target: CgBdf1 BD2 (Candida glabrata, UniProt Q6FWV7)
# Assay: not given
# Conditions: read-out: IC50 CgBdf1 BD2; Table S3; estimate, preliminary single-replicate HTRF assay
row,SMILES,IC50
1,CCc1nn2c(CNC(=O)c3cccc(OC)c3)c(-c3ccccc3)nc2s1,6.5 µM
2,CCC(=O)Nc1ccc(CCc2nc3ccc(C(=O)NCc4ccc(C)o4)cc3[nH]2)cc1,> 20 µM
3,CC(=O)Nc1ccc(CCc2nc3ccc(C(=O)NCc4ccc(C)o4)cc3[nH]2)cc1,17 µM
4,CC(=O)c1cccc(NC(=O)Cn2cccc2-c2nc(-c3ccc4c(c3)OCO4)no2)c1,> 20 µM
5,COc1ccc(-c2nc3cnccn3c2Nc2ccc(Br)cc2)cc1OC,> 20 µM
6,CC(=O)Nc1ccc(CCc2nc3ccc(C(=O)NCc4ccc5c(c4)OCO5)cc3[nH]2)cc1,> 20 µM

# Test system: CgBdf1 BD1
# Assay: not given
# Conditions: CgBdf1 BD1 WT; normalized peptide array signal
row,SMILES,"Normalized (0 to 100%), WT, Average"
1,CCc1nn2c(CNC(=O)c3cccc(OC)c3)c(-c3ccccc3)nc2s1,18%
2,CCC(=O)Nc1ccc(CCc2nc3ccc(C(=O)NCc4ccc(C)o4)cc3[nH]2)cc1,3%
3,CC(=O)Nc1ccc(CCc2nc3ccc(C(=O)NCc4ccc(C)o4)cc3[nH]2)cc1,1.83%
4,COc1ccc(-c2nc3cnccn3c2Nc2ccc(Br)cc2)cc1OC,1.15%
5,CC(=O)Nc1ccc(CCc2nc3ccc(C(=O)NCc4ccc5c(c4)OCO5)cc3[nH]2)cc1,6.63%

# Same assay, conditions: CgBdf1 BD1 WT; peptide array signal, left replicate
row,SMILES,"Raw data, WT, Left"
1,CCc1nn2c(CNC(=O)c3cccc(OC)c3)c(-c3ccccc3)nc2s1,0.1207
2,CCC(=O)Nc1ccc(CCc2nc3ccc(C(=O)NCc4ccc(C)o4)cc3[nH]2)cc1,0.0003151
3,CC(=O)Nc1ccc(CCc2nc3ccc(C(=O)NCc4ccc(C)o4)cc3[nH]2)cc1,0.01323
4,COc1ccc(-c2nc3cnccn3c2Nc2ccc(Br)cc2)cc1OC,0.01292
5,CC(=O)Nc1ccc(CCc2nc3ccc(C(=O)NCc4ccc5c(c4)OCO5)cc3[nH]2)cc1,0.01008

# Same assay, conditions: CgBdf1 BD1 WT; peptide array signal, right replicate
row,SMILES,"Raw data, WT, Rigt"
1,CCc1nn2c(CNC(=O)c3cccc(OC)c3)c(-c3ccccc3)nc2s1,0.2328
2,CCC(=O)Nc1ccc(CCc2nc3ccc(C(=O)NCc4ccc(C)o4)cc3[nH]2)cc1,0.05766
3,CC(=O)Nc1ccc(CCc2nc3ccc(C(=O)NCc4ccc(C)o4)cc3[nH]2)cc1,0.02331
4,COc1ccc(-c2nc3cnccn3c2Nc2ccc(Br)cc2)cc1OC,0.01008
5,CC(=O)Nc1ccc(CCc2nc3ccc(C(=O)NCc4ccc5c(c4)OCO5)cc3[nH]2)cc1,0.1226

# Same assay, conditions: CgBdf1 BD1 YF mutant; normalized peptide array signal
row,SMILES,"Normalized (0 to 100%), YF mutant, Average"
1,CCc1nn2c(CNC(=O)c3cccc(OC)c3)c(-c3ccccc3)nc2s1,0.478%
2,CCC(=O)Nc1ccc(CCc2nc3ccc(C(=O)NCc4ccc(C)o4)cc3[nH]2)cc1,0.386%
3,CC(=O)Nc1ccc(CCc2nc3ccc(C(=O)NCc4ccc(C)o4)cc3[nH]2)cc1,0.339%
4,COc1ccc(-c2nc3cnccn3c2Nc2ccc(Br)cc2)cc1OC,0.447%
5,CC(=O)Nc1ccc(CCc2nc3ccc(C(=O)NCc4ccc5c(c4)OCO5)cc3[nH]2)cc1,0.509%

# Same assay, conditions: CgBdf1 BD1 YF mutant; peptide array signal, left replicate
row,SMILES,"Raw data, YF mutant, Left"
1,CCc1nn2c(CNC(=O)c3cccc(OC)c3)c(-c3ccccc3)nc2s1,0.006169
2,CCC(=O)Nc1ccc(CCc2nc3ccc(C(=O)NCc4ccc(C)o4)cc3[nH]2)cc1,0.003085
3,CC(=O)Nc1ccc(CCc2nc3ccc(C(=O)NCc4ccc(C)o4)cc3[nH]2)cc1,0.003701
4,COc1ccc(-c2nc3cnccn3c2Nc2ccc(Br)cc2)cc1OC,0.005861
5,CC(=O)Nc1ccc(CCc2nc3ccc(C(=O)NCc4ccc5c(c4)OCO5)cc3[nH]2)cc1,0.003393

# Same assay, conditions: CgBdf1 BD1 YF mutant; peptide array signal, right replicate
row,SMILES,"Raw data, YF mutant, Right"
1,CCc1nn2c(CNC(=O)c3cccc(OC)c3)c(-c3ccccc3)nc2s1,0.003393
2,CCC(=O)Nc1ccc(CCc2nc3ccc(C(=O)NCc4ccc(C)o4)cc3[nH]2)cc1,0.004627
3,CC(=O)Nc1ccc(CCc2nc3ccc(C(=O)NCc4ccc(C)o4)cc3[nH]2)cc1,0.003085
4,COc1ccc(-c2nc3cnccn3c2Nc2ccc(Br)cc2)cc1OC,0.003085
5,CC(=O)Nc1ccc(CCc2nc3ccc(C(=O)NCc4ccc5c(c4)OCO5)cc3[nH]2)cc1,0.006786

# Same assay, conditions: peptide array signal; CgBdf1 BD1 WT; first replicate column
row,SMILES,"Raw data, WT"
1,CC(=O)c1cccc(NC(=O)Cn2cccc2-c2nc(-c3ccc4c(c3)OCO4)no2)c1,0.01134

# Same assay, conditions: peptide array signal; CgBdf1 BD1 WT; mean of the two raw values
row,SMILES,"Normalized (0 to 100%), WT"
1,CC(=O)c1cccc(NC(=O)Cn2cccc2-c2nc(-c3ccc4c(c3)OCO4)no2)c1,2.76%

# Same assay, conditions: peptide array signal; CgBdf1 BD1 WT; second replicate column
row,SMILES,"Raw data, WT"
1,CC(=O)c1cccc(NC(=O)Cn2cccc2-c2nc(-c3ccc4c(c3)OCO4)no2)c1,0.04379

# Same assay, conditions: peptide array signal; CgBdf1 BD1 YF mutant; first replicate column
row,SMILES,"Raw data, YF mutant"
1,CC(=O)c1cccc(NC(=O)Cn2cccc2-c2nc(-c3ccc4c(c3)OCO4)no2)c1,0.003085

# Same assay, conditions: peptide array signal; CgBdf1 BD1 YF mutant; mean of the two raw values
row,SMILES,"Normalized (0 to 100%), YF mutant"
1,CC(=O)c1cccc(NC(=O)Cn2cccc2-c2nc(-c3ccc4c(c3)OCO4)no2)c1,0.308%

# Same assay, conditions: peptide array signal; CgBdf1 BD1 YF mutant; second replicate column
row,SMILES,"Raw data, YF mutant"
1,CC(=O)c1cccc(NC(=O)Cn2cccc2-c2nc(-c3ccc4c(c3)OCO4)no2)c1,0.003085

# Test system: CgBdf1 BD2
# Assay: not given
# Conditions: CgBdf1 BD2 WT; normalized peptide array signal
row,SMILES,"Normalized (0 to 100%), WT, Average"
1,CCc1nn2c(CNC(=O)c3cccc(OC)c3)c(-c3ccccc3)nc2s1,0.858%
2,CCC(=O)Nc1ccc(CCc2nc3ccc(C(=O)NCc4ccc(C)o4)cc3[nH]2)cc1,0.639%
3,CC(=O)Nc1ccc(CCc2nc3ccc(C(=O)NCc4ccc(C)o4)cc3[nH]2)cc1,0.764%
4,COc1ccc(-c2nc3cnccn3c2Nc2ccc(Br)cc2)cc1OC,1%
5,CC(=O)Nc1ccc(CCc2nc3ccc(C(=O)NCc4ccc5c(c4)OCO5)cc3[nH]2)cc1,0.936%

# Same assay, conditions: CgBdf1 BD2 WT; peptide array signal, left replicate
row,SMILES,"Raw data, WT, Left"
1,CCc1nn2c(CNC(=O)c3cccc(OC)c3)c(-c3ccccc3)nc2s1,0.005926
2,CCC(=O)Nc1ccc(CCc2nc3ccc(C(=O)NCc4ccc(C)o4)cc3[nH]2)cc1,0.004679
3,CC(=O)Nc1ccc(CCc2nc3ccc(C(=O)NCc4ccc(C)o4)cc3[nH]2)cc1,0.00811
4,COc1ccc(-c2nc3cnccn3c2Nc2ccc(Br)cc2)cc1OC,0.01154
5,CC(=O)Nc1ccc(CCc2nc3ccc(C(=O)NCc4ccc5c(c4)OCO5)cc3[nH]2)cc1,0.004055

# Same assay, conditions: CgBdf1 BD2 WT; peptide array signal, right replicate
row,SMILES,"Raw data, WT, Rigt"
1,CCc1nn2c(CNC(=O)c3cccc(OC)c3)c(-c3ccccc3)nc2s1,0.01123
2,CCC(=O)Nc1ccc(CCc2nc3ccc(C(=O)NCc4ccc(C)o4)cc3[nH]2)cc1,0.00811
3,CC(=O)Nc1ccc(CCc2nc3ccc(C(=O)NCc4ccc(C)o4)cc3[nH]2)cc1,0.007174
4,COc1ccc(-c2nc3cnccn3c2Nc2ccc(Br)cc2)cc1OC,0.009357
5,CC(=O)Nc1ccc(CCc2nc3ccc(C(=O)NCc4ccc5c(c4)OCO5)cc3[nH]2)cc1,0.01466

# Same assay, conditions: CgBdf1 BD2 YF mutant; normalized peptide array signal
row,SMILES,"Normalized (0 to 100%), YF mutant, Average"
1,CCc1nn2c(CNC(=O)c3cccc(OC)c3)c(-c3ccccc3)nc2s1,0.598%
2,CCC(=O)Nc1ccc(CCc2nc3ccc(C(=O)NCc4ccc(C)o4)cc3[nH]2)cc1,0.613%
3,CC(=O)Nc1ccc(CCc2nc3ccc(C(=O)NCc4ccc(C)o4)cc3[nH]2)cc1,1.18%
4,COc1ccc(-c2nc3cnccn3c2Nc2ccc(Br)cc2)cc1OC,0.905%
5,CC(=O)Nc1ccc(CCc2nc3ccc(C(=O)NCc4ccc5c(c4)OCO5)cc3[nH]2)cc1,0.706%

# Same assay, conditions: CgBdf1 BD2 YF mutant; peptide array signal, left replicate
row,SMILES,"Raw data, YF mutant, Left"
1,CCc1nn2c(CNC(=O)c3cccc(OC)c3)c(-c3ccccc3)nc2s1,0.008589
2,CCC(=O)Nc1ccc(CCc2nc3ccc(C(=O)NCc4ccc(C)o4)cc3[nH]2)cc1,0.007362
3,CC(=O)Nc1ccc(CCc2nc3ccc(C(=O)NCc4ccc(C)o4)cc3[nH]2)cc1,0.01718
4,COc1ccc(-c2nc3cnccn3c2Nc2ccc(Br)cc2)cc1OC,0.01503
5,CC(=O)Nc1ccc(CCc2nc3ccc(C(=O)NCc4ccc5c(c4)OCO5)cc3[nH]2)cc1,0.004294

# Same assay, conditions: CgBdf1 BD2 YF mutant; peptide array signal, right replicate
row,SMILES,"Raw data, YF mutant, Right"
1,CCc1nn2c(CNC(=O)c3cccc(OC)c3)c(-c3ccccc3)nc2s1,0.003374
2,CCC(=O)Nc1ccc(CCc2nc3ccc(C(=O)NCc4ccc(C)o4)cc3[nH]2)cc1,0.004908
3,CC(=O)Nc1ccc(CCc2nc3ccc(C(=O)NCc4ccc(C)o4)cc3[nH]2)cc1,0.006442
4,COc1ccc(-c2nc3cnccn3c2Nc2ccc(Br)cc2)cc1OC,0.003067
5,CC(=O)Nc1ccc(CCc2nc3ccc(C(=O)NCc4ccc5c(c4)OCO5)cc3[nH]2)cc1,0.009816

# Same assay, conditions: peptide array signal; CgBdf1 BD2 WT; first replicate column
row,SMILES,"Raw data, WT"
1,CC(=O)c1cccc(NC(=O)Cn2cccc2-c2nc(-c3ccc4c(c3)OCO4)no2)c1,0.004679

# Same assay, conditions: peptide array signal; CgBdf1 BD2 WT; mean of the two raw values
row,SMILES,"Normalized (0 to 100%), WT"
1,CC(=O)c1cccc(NC(=O)Cn2cccc2-c2nc(-c3ccc4c(c3)OCO4)no2)c1,0.608%

# Same assay, conditions: peptide array signal; CgBdf1 BD2 WT; second replicate column
row,SMILES,"Raw data, WT"
1,CC(=O)c1cccc(NC(=O)Cn2cccc2-c2nc(-c3ccc4c(c3)OCO4)no2)c1,0.007486

# Same assay, conditions: peptide array signal; CgBdf1 BD2 YF mutant; first replicate column
row,SMILES,"Raw data, YF mutant"
1,CC(=O)c1cccc(NC(=O)Cn2cccc2-c2nc(-c3ccc4c(c3)OCO4)no2)c1,0.01043

# Same assay, conditions: peptide array signal; CgBdf1 BD2 YF mutant; mean of the two raw values
row,SMILES,"Normalized (0 to 100%), YF mutant"
1,CC(=O)c1cccc(NC(=O)Cn2cccc2-c2nc(-c3ccc4c(c3)OCO4)no2)c1,0.69%

# Same assay, conditions: peptide array signal; CgBdf1 BD2 YF mutant; second replicate column
row,SMILES,"Raw data, YF mutant"
1,CC(=O)c1cccc(NC(=O)Cn2cccc2-c2nc(-c3ccc4c(c3)OCO4)no2)c1,0.003374
